Data taken from the supplement of paper PMC9931576.
Human monoclonal antibodies against the spike receptor-binding domain (heavy:light variable regions). IC50 against pseudoviruses bearing the spike of naturally observed variants; lower = stronger; >10 µg/ml means not reached at the top dose. No active / inactive call. The stated detection limit is 0.0005 µg/ml; values near or below 0.001 µg/ml lie at the floor of the assay.

B1: BD56-610 (protein)
chain 1: QVQLVQSGAEAKKPGSSLKVSCKASGGTFSSYSINWVRQAPGQGLEWMGKIIPILGIANYAQKFQGRVTITADKSTSTAYMELSSLRSEDTATYYCAREMAMAGYNTEYFQYWGQGTLVTVSS
chain 2: QSVLTQPPSVSGAPGQRVTISCTGSSSNIGAGYDVHWYQQLPGTAPKLLIYGNSNRPSGVPDRFSGSKSDTSASLAITGLQAEDEADYYCQSYDSSLSELLFGGGTKLTVL
B2: BD56-603 (protein)
chain 1: QVQLVQSGAEVKKPGASVKVSCKASGYTFTSYYMHWVRQAPGQGLEWMGIINPSGGSTSYAQKFQGRVTMTRDTSTSTVYMELSSLRSEDTAVYYCARDHVLEVVVIDYYYGMDVWGQGTTVTVSS
chain 2: QSALTQPASVSGSPGQSITISCTGTSSDVGGYNYVSWYQQHPGKAPKLMIYDVSKRPSGVSNRFSGSKSGNTASLTISGLQAEDEADYYCSSYTSSSTLNWVFGGGTKLTVL
B3: BD56-608 (protein)
chain 1: EVQLVQSGAEVKKPGESLRISCKGSGYHFNRYWINWVRQMPGKGLEWMGRIDPSDSYTNYSPSFQGHVTISVDKSISTAYLQWSSLQASDTAMYYCARQVYFGESFGLGYWGQGTLVTVSS
chain 2: QTVVTQEPSLTVSPGGTVTLTCASSTGAVTIGFYPNWFQQKPGQAPRALIYSTSNKHSWTPARFSGSLLGGKAALTLSGVQPEDEGEYYCLLYYGASWVFGGGTKLTVL
B4: BD56-599 (protein)
chain 1: QVQLVQSGAELKKPGASVKVSCKASGYTFTSHDISWVRQAPGQGLEWMGWISAYNGDTNYAQKLQGRVTMTTDTSTSTAYMELRSLRSDDTAVYYCARATWEMPTIPTPTSVDYWGQGTLVTVSS
chain 2: SYELTQPPSVSVSPGQTARITCSGAAFPMQYAYWYQQKPGQAPVVVIYKDTERPSGIPERFSGSSSGTTVTLTISGVQAEDEADYYCQSADSRAWVFGGGTKLTVL
B5: BD56-614 (protein)
chain 1: EVQLVESGGGLIQPGESLRLSCAASGFTVSSNYVSWVRQAPGKGLEWVSVIYSGGRTFYADSVKARFTISRDNFKNTVYLQMDSLRAEDTAVYYCARGEPLKGISSYGDDYYFDSWGQGTLVTVSS
chain 2: SSELTQPPSVSVSPGQTARITCSGDTLPMQYVYWYQQKAGQAPALVIYKDTERPSGIPERFSGSSSGTAVMLTIRGVQAEDEAVYYCQSADSSGVVFGGGTKLTVL
B6: BD56-612 (protein)
chain 1: QVTLRESGPALVKPTQTLTLTCTFSGVSLTTSEMYVSWIRQPPGKALEWLALIGWDDDKYYSTSLKTRLTISRDTSKNQVLLTVTNVDPADTATYYCARSPSLYESSGYYYQYYFAYWGRGTLVTVSS
chain 2: EIVLTQSPGTLSLSPGEKATLSCRASQSVSSSYLAWYQQKPGQAPRLLMYGASSRATGIPDRFSGSGSGTDFTLTISRLEPEDFAVYYCQQYGGSPLTFGQGTKVEIK

biological target: SARS-CoV-2 Omicron BA.1 spike pseudovirus; assay: pseudovirus neutralization IC50; higher = weaker neutralization
Description: (§1)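 Single-round VSV luciferase pseudovirus mixed with antibody dilutions for 1 h and put on Huh-7 cells for about a day; IC50 from the dose curve.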

Binder	pseudovirus neutralization IC50 [µg/mL]
B1	0.0391
B2	7.63
B3	0.115
B4	> 10
B5	> 10
B6	3.79

biological target: SARS-CoV-2 Omicron BA.2 spike pseudovirus; assay: as above
Description: as §1

Binder	pseudovirus neutralization IC50 [µg/mL]
B1	0.0329
B2	> 10
B3	0.118
B4	> 10
B5	> 10
B6	3.91

biological target: SARS-CoV-2 Omicron BA.2.75 spike pseudovirus; assay: as above
Description: as §1

Binder	pseudovirus neutralization IC50 [µg/mL]
B1	0.0379
B2	> 10
B3	0.136
B4	> 10
B5	> 10
B6	2.19

biological target: SARS-CoV-2 Omicron BA.5 spike pseudovirus; assay: as above
Description: as §1

Binder	pseudovirus neutralization IC50 [µg/mL]
B1	> 10
B2	> 10
B3	> 10
B4	> 10
B5	> 10
B6	2.96

biological target: SARS-CoV-2 Omicron BQ.1.1 spike pseudovirus; assay: as above
Description: as §1

Binder	pseudovirus neutralization IC50 [µg/mL]
B1	> 10
B2	> 10
B3	> 10
B4	> 10
B5	> 10
B6	3.41

biological target: SARS-CoV-2 Omicron XBB spike pseudovirus; assay: as above
Description: as §1

Binder	pseudovirus neutralization IC50 [µg/mL]
B1	4.95
B2	> 10
B3	> 10
B4	> 10
B5	> 10
B6	3.45

biological target: SARS-CoV-2 early D614G spike pseudovirus; assay: as above
Description: as §1

Binder	pseudovirus neutralization IC50 [µg/mL]
B1	0.0363
B2	> 10
B3	0.0368
B4	> 10
B5	> 10
B6	4.08
